Our source for the C50 values is US20080050396A1.

This test deals with HLA-A2 (human).

In the case of HIV-1 pol476-484 (peptide), the C50 amounted to 0.7 µM.
